# Laboratory results published in US20200207824A1.
# Molecular target: T-cell receptor on CD8+ T cells isolated from spleens of LCMV mice (antigen-specific, lymphocytic ch (mouse))
substance,measurement,value
syntac: 986-835 (from UniProt P60568) (peptide-MHC),Kd,0.388 nM
